From PMC11748689, “Pharmacological and structural understanding of the Trypanosoma cruzi proteasome provides key insights for developing site-specific inhibitors” (The Journal of Biological Chemistry, 2024)

Chains of the proteins cited; added tags and fusions are not shown. Lines headed by an entry give the natural chain unless they say otherwise; changes in a name come on top. Residues count along the entry.
UniProt V5BU39, 111-311 limits assumed: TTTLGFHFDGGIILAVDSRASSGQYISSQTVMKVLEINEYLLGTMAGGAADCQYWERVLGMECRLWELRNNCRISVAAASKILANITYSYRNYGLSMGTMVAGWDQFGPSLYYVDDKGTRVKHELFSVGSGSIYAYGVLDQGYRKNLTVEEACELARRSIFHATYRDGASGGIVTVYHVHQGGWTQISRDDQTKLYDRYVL
UniProt V5C017, 1-206: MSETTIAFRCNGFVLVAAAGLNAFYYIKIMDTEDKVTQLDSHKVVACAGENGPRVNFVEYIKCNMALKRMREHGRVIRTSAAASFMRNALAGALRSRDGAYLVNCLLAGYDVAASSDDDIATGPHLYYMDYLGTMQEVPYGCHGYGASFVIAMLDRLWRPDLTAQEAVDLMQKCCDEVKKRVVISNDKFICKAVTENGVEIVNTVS
UniProt V5C017, 1-206 F24L/I29M: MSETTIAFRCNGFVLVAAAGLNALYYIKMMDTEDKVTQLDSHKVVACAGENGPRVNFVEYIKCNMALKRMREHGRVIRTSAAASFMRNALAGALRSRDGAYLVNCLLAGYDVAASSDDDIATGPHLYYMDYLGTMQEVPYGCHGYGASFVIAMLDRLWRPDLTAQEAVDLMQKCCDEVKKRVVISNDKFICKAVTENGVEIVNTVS
UniProt V5BCU3, 67-292 limits assumed: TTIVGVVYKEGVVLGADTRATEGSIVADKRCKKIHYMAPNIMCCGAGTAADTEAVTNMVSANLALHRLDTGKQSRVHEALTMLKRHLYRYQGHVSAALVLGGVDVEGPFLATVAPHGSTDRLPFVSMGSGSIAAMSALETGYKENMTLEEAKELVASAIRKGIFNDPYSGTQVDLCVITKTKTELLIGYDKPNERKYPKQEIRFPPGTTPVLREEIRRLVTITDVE
UniProt V5BCU3, 67-292 T67A partner limits assumed: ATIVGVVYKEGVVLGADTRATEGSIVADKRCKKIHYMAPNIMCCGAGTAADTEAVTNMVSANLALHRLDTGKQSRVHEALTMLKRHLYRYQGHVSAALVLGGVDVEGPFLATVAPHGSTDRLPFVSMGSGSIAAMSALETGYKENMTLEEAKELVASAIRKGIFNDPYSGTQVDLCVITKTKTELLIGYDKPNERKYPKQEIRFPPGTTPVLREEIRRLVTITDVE
UniProt V5BHX1, 55-284 limits assumed: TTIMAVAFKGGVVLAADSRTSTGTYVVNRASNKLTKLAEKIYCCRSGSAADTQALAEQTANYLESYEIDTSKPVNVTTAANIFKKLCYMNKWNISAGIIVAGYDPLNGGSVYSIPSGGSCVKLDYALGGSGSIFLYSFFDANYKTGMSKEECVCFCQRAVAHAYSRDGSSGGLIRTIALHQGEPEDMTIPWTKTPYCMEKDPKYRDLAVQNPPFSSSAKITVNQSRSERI
UniProt V5BHX1, 55-284 T55A partner limits assumed: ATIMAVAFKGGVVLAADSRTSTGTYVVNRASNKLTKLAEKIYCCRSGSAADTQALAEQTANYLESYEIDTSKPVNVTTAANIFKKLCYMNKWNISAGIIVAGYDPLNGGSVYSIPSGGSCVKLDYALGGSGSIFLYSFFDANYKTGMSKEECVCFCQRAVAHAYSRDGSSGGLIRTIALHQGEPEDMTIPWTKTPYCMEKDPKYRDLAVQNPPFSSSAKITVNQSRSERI
UniProt A0A2V2VW62, 1-246 K245N partner: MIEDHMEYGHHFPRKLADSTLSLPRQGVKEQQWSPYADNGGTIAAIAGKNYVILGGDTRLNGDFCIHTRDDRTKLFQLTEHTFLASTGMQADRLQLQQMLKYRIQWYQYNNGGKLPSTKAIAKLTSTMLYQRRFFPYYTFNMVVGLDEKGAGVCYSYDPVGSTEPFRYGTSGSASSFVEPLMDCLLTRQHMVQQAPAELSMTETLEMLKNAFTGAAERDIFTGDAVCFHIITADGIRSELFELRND
UniProt A0A2V2VW62, 32-246 partner limits assumed: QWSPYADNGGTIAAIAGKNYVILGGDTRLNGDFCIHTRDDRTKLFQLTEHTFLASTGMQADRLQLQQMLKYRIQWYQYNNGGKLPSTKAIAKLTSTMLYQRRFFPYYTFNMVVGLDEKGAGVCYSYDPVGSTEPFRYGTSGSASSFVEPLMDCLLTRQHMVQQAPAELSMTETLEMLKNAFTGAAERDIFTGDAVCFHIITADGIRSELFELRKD
UniProt V5BGL9, 1-205 partner: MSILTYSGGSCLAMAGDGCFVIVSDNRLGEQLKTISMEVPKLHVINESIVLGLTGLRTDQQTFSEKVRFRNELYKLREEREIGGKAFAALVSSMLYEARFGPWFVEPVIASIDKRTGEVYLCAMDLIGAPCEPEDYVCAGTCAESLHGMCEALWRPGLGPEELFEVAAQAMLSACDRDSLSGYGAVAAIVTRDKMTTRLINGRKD

What was measured:
[1] = biological target: recombinant WT T. cruzi proteasome (chymotrypsin-like activity, β5) (Trypanosoma cruzi, UniProt V5BU39+V5C017)
[2] = biological target: recombinant Δβ1Δβ2 mutant T. cruzi proteasome (chymotrypsin-like activity) (Trypanosoma cruzi, UniProt V5BU39+V5C017); details: mean ± SD, N = 3
[3] = biological target: native T. cruzi proteasome (trypsin-like activity, β2) (Trypanosoma cruzi, UniProt V5BCU3); assay: Trypsin-like activity assay (Proteasome-Glo), native T. cruzi proteasome; assay type: biochemical; details: mean ± SD, N = 3
[4] = biological target: recombinant β4^R mutant T. cruzi proteasome (caspase-like activity) (Trypanosoma cruzi, UniProt V5BHX1); assay: Caspase-like activity assay (Proteasome-Glo), recombinant β4^R mutant T. cruzi proteasome; assay type: biochemical; details: mean ± SD, N = 3
[5] = biological target: native T. cruzi proteasome (chymotrypsin-like activity, β5) (Trypanosoma cruzi, UniProt V5BU39+V5C017); assay: Chymotrypsin-like activity assay (Proteasome-Glo), native T. cruzi proteasome; assay type: biochemical; details: mean ± SD, N = 3; biphasic curves (a): pIC50 of most potent curve; 60 min preincubation
[6] = biological target: native T. cruzi proteasome (caspase-like activity, β1) (Trypanosoma cruzi, UniProt V5BHX1); assay: Caspase-like activity assay (Proteasome-Glo), native T. cruzi proteasome; assay type: biochemical; details: mean ± SD, N = 3
[7] = biological target: recombinant WT T. cruzi proteasome (trypsin-like activity, β2) (Trypanosoma cruzi, UniProt V5BCU3); details: mean ± SD, N = 3
[8] = biological target: recombinant β4^R mutant T. cruzi proteasome (chymotrypsin-like activity) (Trypanosoma cruzi, UniProt V5BU39+V5C017, F24L/I29M); details: mean ± SD, N = 3; biphasic curves (a): pIC50 of most potent curve
[9] = biological target: recombinant WT T. cruzi proteasome (caspase-like activity, β1) (Trypanosoma cruzi, UniProt V5BHX1); assay: Caspase-like activity assay (Proteasome-Glo), recombinant wild-type T. cruzi proteasome; assay type: biochemical; details: mean ± SD, N = 3
[10] = biological target: recombinant β4^R mutant T. cruzi proteasome (trypsin-like activity) (Trypanosoma cruzi, UniProt V5BCU3); details: mean ± SD, N = 3

## C[C@@H]1COCCN1c1cnc2nc(-c3cc(NC(=O)N4CC[C@@H](F)C4)ccc3F)ccn12
[1]
  pIC50, Chymotrypsin Assay, Wild-type: 7.75 ± 0.22
[2]
  pIC50, Chymotrypsin Assay, Δβ1Δβ2 mutant: 7.82 ± 0.21
[3]
  pIC50, Trypsin Assay, Native: <4.52
[4]
  pIC50, Caspase Assay, β4^R mutant: <4.52
[5]
  pIC50, Chymotrypsin Assay, Native: 8.18 ± 0.34
[6]
  pIC50, Caspase Assay, Native: <4.52
[7]
  pIC50, Trypsin Assay, Wild-type: <4.52
[8]
  pIC50, Chymotrypsin Assay, β4^R mutant: 5.08 ± 0.27
[9]
  pIC50, Caspase Assay, Wild-type: <4.52
[10]
  pIC50, Trypsin Assay, β4^R mutant: <4.52
